One compound from US8092020B2 (priority 2002, dated 2012) can be followed below.

For this series, the system named is Sprague-Dawley rat. To be noted: in vivo.

For `[C-]#[O+]` [CO, Carbon monoxide], the “60 minute exposure LD50” value came out at 3123 ppm.
